Tested on: 35DHU substrate
Assay: Gel-based Schiff base trapping assay (SDS-PAGE, PhosphorImager), active fraction determination
Format: biochemical
Procedure: Oligonucleotide substrates were purchased from Midland Certified Reagent Co. (Midland, Tex.) and were PAGE purified prior to use. All gel-based comparisons were performed with the following double stranded substrate: (35DHU) 5′-TET-tgtcaatagcaagnggagaagtcaatcgtgagtct-3′ (SEQ ID NO:1) where TET represents the fluorescent label 6-tetrachlorofluorescein and n=5,6-dihydrouracil (DHU). […]
For gel-based substrates, completed reactions were mixed with a dye-free SDS loading buffer (50 mM Tris-HCl (pH 6.8), 100 mM dithiothreitol, 4% SDS, 10% glycerol), heated to 90° C. for 5 minutes, separated by 12% SDS-PAGE, and visualized by PhosphorImager analysis (Bio-Rad Molecular Imager FX) (Bio-Rad Laboratories, Hercules, Calif.). For all other substrates, an equal volume of 200 nM DAPI in 10 mM Tris-HCl (pH 8.0) and 50 mM NaCl was added and incubated for 5 minutes at room temperature prior to fluorescence detection. Final concentrations of the fluorescence effecting molecules at the time of detection in these experiments were 100 nM DAPI, 50 nM substrate, and 25-800 nM enzyme. […]

B1: EcoFpg: Escherichia coli formamidopyrimidine-DNA glycosylase, purified recombinant enzyme preparation (protein, UniProt P05523 2-269, looked up)
Formamidopyrimidine-DNA …: PELPEVETSRRGIEPHLVGATILHAVVRNGRLRWPVSEEIYRLSDQPVLSVQRRAKYLLLELPEGWIIIHLGMSGSLRILPEELPPEKHDHVDLVMSNGKVLRYTDPRRFGAWLWTKELEGHNVLTHLGPEPLSDDFNGEYLHQKCAKKKTAIKPWLMDNKLVVGVGNIYASESLFAAGIHPDRLASSLSLAECELLARVIKAVLLRSIEQGGTTLKDFLQSDGKPGYFAQELQVYGRKGEPCRVCGTPIVATKHAQRATFYCRQCQK
Q: For B1, which “β value (fraction of cleavable substrate)” value is on record?
A: approximately 0.8

B2: EcoNth: Escherichia coli endonuclease III, purified recombinant enzyme preparation (protein, UniProt P0AB83 1-211, looked up)
Endonuclease III: MNKAKRLEILTRLRENNPHPTTELNFSSPFELLIAVLLSAQATDVSVNKATAKLYPVANTPAAMLELGVEGVKTYIKTIGLYNSKAENIIKTCRILLEQHNGEVPEDRAALEALPGVGRKTANVVLNTAFGWPTIAVDTHIFRVCNRTQFAPGKNVEQVEEKLLKVVPAEFKVDCHHWLILHGRYTCIARKPRCGSCIIEDLCEYKEKVDI
Q: B2 was tested. Which “β value (fraction of cleavable substrate)” value did it give?
A: approximately 0.8
